Pooled drug test results. Numbers come from NIAID ChemDB, via PubChem.

Shared fields: growth or infection tests; organism: HIV-1; read by: cytopathic effect / MTT; endpoint: EC50

Blank or dashed fields: not listed here.

compound	strain	mutations	cells	value
COc1ccc(S(=O)(=O)N(CC(C)C)C[C@@H](O)[C@H](Cc2ccccc2)NC(=O)[C@H](C(C)C)N2CC(=O)N(Cc3csc(C)n3)C2=O)cc1	A17 (LPV-resistant)	PR-L10F V32I M46I I47V Q68E I84V	MT-4	0.075 µM
N#Cc1cc2[nH]c3ccccc3c2n(-c2ccc([N+](=O)[O-])cc2)c1=O	H	RT-K103N Y181C	MT-4	1.59 µM
CCc1c(Cc2cc(C)cc(C)c2)n(COC/C(C)=C/c2ccccc2)c(=O)[nH]c1=O	IIIB		MT-4	0.003 µM
Cc1cn([C@H]2C=C[C@@H](CO)O2)c(=O)[nH]c1=O	HXB2wt-RT		MT-4	0.52 µM
C=CCOc1cccc(Cc2c(CC)c(=O)n(COCC)c(=O)n2COCC)c1	RT-K103N Y181C Mutant NNRTI-resistant		MT-4	>20 µM
Cc1[nH]c(=S)n(Nc2cccc(Br)c2)c1-c1ccccc1	IIIB		MT-4	9.96 µM
CCC(C)[C@@H](C(=O)N[C@@H](Cc1ccccc1)[C@H](O)CN(CC1CCCC1)S(=O)(=O)c1ccc(/C=N/O)cc1)N1CCN(Cc2cccc(C)n2)C1=O			MT-4	0.0005 µM
CC(=O)Nc1nc(-c2ccc(S(=O)(=O)N(CC(C)C)C[C@@H](O)[C@H](Cc3ccccc3)NC(=O)COc3c(C)cccc3C)cc2)cs1	LAI		MT-4	5.012 µM
COc1cc(Nc2nc3ccccc3n3cccc23)cc(OC)c1OC			MT-4	>100 µM
Cc1ncn(Nc2cccc(Cl)c2)c1C	NL4-3		MT-4	>214 µM
CNc1nc(-c2ccc(S(=O)(=O)N(CC(C)C)C[C@@H](O)[C@H](Cc3ccccc3)NC(=O)COc3c(C)cccc3C)cc2)c(Br)s1	LAI		MT-4	5.012 µM
CCc1c(Cc2cc(C)cc(C)c2)n(COC2C=CCCC2)c(=O)[nH]c1=O	IIIB		MT-4	0.04 µM
Cc1ncc(-c2ccc(S(=O)(=O)N(CC(C)C)C[C@@H](O)[C@H](Cc3ccccc3)NC(=O)O[C@H]3CO[C@H]4OCC[C@H]43)cc2)[nH]1	LAI		MT-4	0.025 µM
CCCc1c(Cc2cc(C)cc(C)c2)n(COC/C(C)=C/c2ccccc2)c(=O)[nH]c1=O	NNRTI-resistant (RT K103N Y181C) A17	RT-K103N Y181C	MT-4	>100 µM
CN1c2ccccc2C2C1C=CC(=O)N2c1ccc(C(=O)O)cc1	LAI		MT-4	1–32 µM
CCCc1c(Cc2cc(C)cc(C)c2)n(COC/C=C/c2ccccc2)c(=O)[nH]c1=O	NNRTI-resistant (RT K103N Y181C) A17	RT-K103N Y181C	MT-4	>100 µM
CCOCn1c(Cc2cccc(OCC3CO3)c2)c(CC)c(=O)[nH]c1=O	RT-Y181C Mutant NNRTI-resistant		MT-4	>80 µM
C=C(C)[C@@H]1CC[C@]2(C(=O)NCCCCCCCC(=O)N[C@@H](CC(C)C)[C@@H](O)CC(=O)O)CC[C@]3(C)[C@H](CC[C@@H]4[C@@]5(C)CC[C@H](O)C(C)(C)[C@@H]5CC[C@]43C)[C@@H]12	IIIB		CEM + CEM-4	0.058 µM
C=CCCc1cccc(Cc2[nH]c(=O)[nH]c(=O)c2CC)c1	RT-Y181C Mutant NNRTI-resistant		MT-4	>66 µM
CCc1c(Cc2cccc(Cc3nc(SC)nc(OC)c3CC)c2)nc(SC)nc1OC			MT-4	41 µM
CCCc1c(Cc2ccccc2)n(COC/C(C)=C/c2ccccc2)c(=O)[nH]c1=O	NNRTI-resistant (RT Y181C) N119	RT-Y181C	MT-4	>100 µM
CC(C)CN(C[C@@H](O)[C@H](Cc1ccccc1)NC(=O)O[C@H]1CO[C@H]2OCC[C@H]21)S(=O)(=O)c1ccc(-c2coc(-c3cccs3)n2)cc1	LAI		MT-4	0.01 µM
COc1cc(Nc2nc3cc(C(F)(F)F)ccc3n3cccc23)cc(OC)c1OC			MT-4	>57 µM
CCc1ncn(Nc2cccc(C)c2)c1-c1ccccc1	NL4-3		MT-4	>27.87 µM
Nc1ccn([C@@H]2CS[C@H](CO)O2)c(=O)n1			MT-4	0.63 µM
CN1c2ccccc2C2C1C=CC(=O)N2c1ccc([N+](=O)[O-])cc1	LAI		MT-4	<1 µM
CCOC(=O)c1ccc(Nc2nc3cc(C(F)(F)F)ccc3n3cccc23)cc1			MT-4	>100 µM
CCOC(=O)CCc1nc(-c2ccc(S(=O)(=O)N(CC(C)C)C[C@@H](O)[C@H](Cc3ccccc3)NC(=O)O[C@H]3CO[C@H]4OCC[C@H]43)cc2)co1		PR-L010F M046I M071V I084V	MT-4	0.6 µM
CCc1c(Cc2cccc(Cc3nc(SC(C)C)[nH]c(=O)c3CC)c2)nc(SC(C)C)[nH]c1=O	RT-K103N+Y181C NNRTI-resistant	RT-K103N Y181C	MT-4	>36 µM
C=CCOc1cccc(Cc2[nH]c(=O)c(CC)c(O)c2CC)c1	RT-Y181C Mutant NNRTI-resistant		MT-4	>20 µM
Nc1nc2c(ncn2[C@@H]2C[C@H](O)[C@H](CO)O2)c(=O)[nH]1			CEM + CEM-SS	>100 µM
CCCc1c(Cc2cc(C)cc(C)c2)n(COC2C=CCCC2)c(=O)[nH]c1=O	NNRTI-resistant (RT Y181C) N119	RT-Y181C	MT-4	>100 µM
Cc1[nH]c(=S)n(Nc2ccccc2)c1C	IIIB		MT-4	>181 µM
CCC(C)[C@@H](C(=O)N[C@@H](Cc1ccccc1)[C@H](O)CN(CC(C)C)S(=O)(=O)c1ccc(/C=N/O)cc1)N1CCN(Cc2cccc(C)n2)C1=O	A17 (LPV-resistant)	PR-L10F V32I M46I I47V Q68E I84V	MT-4	0.007 µM
Cc1[nH]c(=S)n(Nc2cccc(F)c2)c1-c1ccccc1	SO561945 (RT K103N Y181C)	RT-K103N Y181C	MT-4	≥43.42 µM
CC(C)CN(C[C@@H](O)[C@H](Cc1ccccc1)NC(=O)[C@H](C(C)C)N1CC(=O)N(Cc2ccccc2)C1=O)S(=O)(=O)c1ccc(/C=N/O)cc1			MT-4	0.001 µM
CCn1cc(C(=O)O)c(=O)c2cc(F)c(N3CCN(c4ccccc4OC)CC3)c(OC(F)F)c21			MT-4	0.64 µM
COc1ccc(Nc2nc3ccccc3n3cccc23)cc1OC			MT-4	>31 µM
C=CCOc1cccc(Cc2c(CC)c(=O)[nH]c(=O)n2COCC)c1	RT-K103N Y181C Mutant NNRTI-resistant		MT-4	>65 µM
Cc1[nH]c(=S)n(Nc2cccc(Cl)c2)c1C(=O)O	NL4-3		MT-4	>266 µM
CCc1c(Cc2cccc(Cc3nc(SC)[nH]c(=O)c3CC)c2)nc(SC)[nH]c1=O	RT-K103N+Y181C NNRTI-resistant	RT-K103N Y181C	MT-4	>100 µM
C=CCN1c2ccccc2C2C1C=C(C#N)C(=O)N2c1ccc(C#N)cc1	LAI		MT-4	1–32 µM
Cc1nc(-c2ccc(S(=O)(=O)N(CC(C)C)C[C@@H](O)[C@H](Cc3ccccc3)NC(=O)OCc3cncs3)cc2)co1	LAI		MT-4	0.501 µM
CCC(C)[C@@H](C(=O)N[C@@H](Cc1ccccc1)[C@H](O)CN(CC(C)C)S(=O)(=O)c1ccc(/C=N/O)cc1)N1CCN(Cc2cnccc2C)C1=O			MT-4	0.006 µM
CCc1c(Cc2cccc(Cc3nc(N4CCCCC4)[nH]c(=O)c3CC)c2)nc(N2CCCCC2)[nH]c1=O	NNRTI-resistant	RT-Y181C	MT-4	>80 µM
CCOCn1c(Cc2cccc(OCC=O)c2)c(CC)c(=O)[nH]c1=O	RT-K103N Y181C Mutant NNRTI-resistant		MT-4	>45 µM

A second listing of 5 rows from above:

compound,strain,mutations,cells,value
CCc1c(Cc2cc(C)cc(C)c2)n(COC2C=CCCC2)c(=O)[nH]c1=O,IIIB,,MT-4,0.04 µM
CCn1cc(C(=O)O)c(=O)c2cc(F)c(N3CCN(c4ccccc4OC)CC3)c(OC(F)F)c21,,,MT-4,0.64 µM
Nc1ccn([C@@H]2CS[C@H](CO)O2)c(=O)n1,,,MT-4,0.63 µM
CC(C)CN(C[C@@H](O)[C@H](Cc1ccccc1)NC(=O)O[C@H]1CO[C@H]2OCC[C@H]21)S(=O)(=O)c1ccc(-c2coc(-c3cccs3)n2)cc1,LAI,,MT-4,0.01 µM
CCc1ncn(Nc2cccc(C)c2)c1-c1ccccc1,NL4-3,,MT-4,>27.87 µM

Rows are shuffled and stem from different studies. Two numbers with a dash give a range or band. ECn: concentration that inhibits the pathogen or its effect by n%.